Reference: paper PMC10353390, “Biological and Structural Analyses of New Potent Allosteric Inhibitors of HIV-1 Integrase” (Antimicrobial Agents and Chemotherapy, 2023)

Tested on: NL4-3 HIV-1 strain
Assay: In vitro selection of resistance in MT4 cells under escalating drug pressure
Format: cell-based
Conditions: percentage of total missense mutations in IN

SMILES | Frequency of IN mutation A128T, Early (18 dpi) | Frequency of IN mutation E170G, Early (18 dpi) | Frequency of IN mutation H171Q, Early (18 dpi) | Frequency of IN mutation N222K, Early (18 dpi) | Frequency of IN mutation T174I, Early (18 dpi) | Frequency of IN mutation Y99H, Early (18 dpi) | Frequency of IN mutation A128T, Intermediate (42 dpi) | Frequency of IN mutation E170G, Intermediate (42 dpi) | Frequency of IN mutation H171Q, Intermediate (42 dpi) | Frequency of IN mutation N222K, Intermediate (42 dpi) | Frequency of IN mutation T174I, Intermediate (42 dpi) | Frequency of IN mutation Y99H, Intermediate (42 dpi) | Frequency of IN mutation A128T, Final (66 to 73 dpi) | Frequency of IN mutation E170G, Final (66 to 73 dpi) | Frequency of IN mutation H171Q, Final (66 to 73 dpi) | Frequency of IN mutation N222K, Final (66 to 73 dpi) | Frequency of IN mutation T174I, Final (66 to 73 dpi) | Frequency of IN mutation Y99H, Final (66 to 73 dpi) | also measured
Cc1nc2ccccc2c(-c2ccc3c4c(ccnc24)CCO3)c1[C@H](OC(C)(C)C)C(=O)O [BI-224436, reference compound] | 40% | 20% | 20% | 20% | 0% | 0% | 33% | 11% | 11% | 11% | 22% | 11% | 38% | 0% | 13% | 13% | 25% | 13% | 
Cc1ccc(C2CC2)c(-c2ccc3c(c2)CCCO3)c1[C@H](OC(C)(C)C)C(=O)O [BDM-2] | 57% | 0% | 0% | 7% | 0% | 36% | 50% | 0% | 0% | 19% | 0% | 31% | 30% | 3% | 3% | 13% | 10% | 23% | Frequency of IN mutation A129T, Early (18 dpi): 0%; Frequency of IN mutation L172I/F, Early (18 dpi): 0%; Frequency of IN mutation T125A, Early (18 dpi): 0%; Frequency of IN mutation A129T, Intermediate (42 dpi): 0%; Frequency of IN mutation L172I/F, Intermediate (42 dpi): 0%; Frequency of IN mutation T125A, Intermediate (42 dpi): 0%; Frequency of IN mutation A129T, Final (66 to 73 dpi): 10%; Frequency of IN mutation L172I/F, Final (66 to 73 dpi): 3%; Frequency of IN mutation T125A, Final (66 to 73 dpi): 3%
